Anti-infective test results gathered from many reports (values: NIAID ChemDB through PubChem).

All rows: growth or infection tests; agent: Herpes simplex virus 1; measure: EC50

ECn: concentration that inhibits the pathogen or its effect by n%. Conditions beyond the fields shown may differ between rows. Blank or dashed fields: not listed here.

SMILES	method	cells	strain or isolate	value
Cc1cn([C@@H]2CC3(CO2)COC(C)(C)O3)c(=O)[nH]c1=O		CCL18		>100 µM
CSCc1cn([C@H]2C[C@H](O)[C@@H](CO)O2)c(=O)[nH]c1=O	cytopathic effect	PRK	VEO231	10 µg/mL
CC1(C)OCC2(CO[C@@H](n3ccc(=O)[nH]c3=O)C2)O1		CCL18		>100 µM
Cc1ccn2c(C(SCCc3ccccc3)SCCc3ccccc3)cnc2c1		E6SM	KOS	>1000 µM
CC1(CO)CCC(Cn2nnc3c(Cl)nc(N)nc32)C1(C)C	cytopathic effect	E6SM	TK-/B2006	>400 µg/mL
Nc1nc(=O)n([C@@H]2CC[C@H](CO)O2)cc1F	plaque count	VERO	WT-34	5.6 µM
O=c1[nH]c(=O)n([C@H]2C[C@H](O)[C@@H](CO)O2)cc1CCCl	cytopathic effect	HEP-2		<0.03 µg/mL
O=Cc1cn([C@H]2C[C@H](O)[C@@H](CO)O2)c(=O)[nH]c1=O	cytopathic effect	PRK	VEX538	2 µg/mL
Cc1cn(N2CC[C@H](CO)[C@H]2CO)c(=O)[nH]c1=O	cytopathic effect	VERO		>100 µg/mL
[O-][n+]1onc2ncnc(N3CC[N+]4(CC3)CC[N+]3(CCN(c5ncnc6no[n+]([O-])c56)CC3)CC4)c21	plaque count	GMK	K1	8.6 µM
Nc1nc2c(ncn2COC(CO)CO)c(=O)[nH]1	PCR		95-2723	>50 µM
Nc1nc2c(ncn2CCC(CO)CO)c(=O)[nH]1	plaque count	VERO	C1 (101)P2C5	1.5 µg/mL
CCCCc1cn([C@@H]2O[C@H](COP(=O)(O)O)[C@@H](O)[C@H]2O)c(=O)nc1N			F	>400 µg/mL
Cc1ccn2c(C3SCCS3)cnc2c1		E6SM	B2006 (TK-)	>1000 µM
O=C(O)P(=O)(O)O	plaque count	MEF	Wilson	8 µg/mL
Nc1nc2c(ncn2COCCO)c(=O)[nH]1	plaque count	VERO	F	0.5 µM
Cc1cn(C2C[C@@H](CO)[C@@H](CO)S2)c(=O)[nH]c1=O	cytopathic effect	VERO		>100 µg/mL
Nc1nc2c(ncn2COC(CO)CO)c(=O)[nH]1	cytopathic effect	PRK	KOS	<0.2 µg/mL
CCCCCc1cn([C@@H]2O[C@H](COP(=O)(O)O)[C@@H](O)[C@H]2O)c(=O)nc1N			KOS	>400 µg/mL
O=c1ccn([C@@H]2C[C@](O)(CO)CO2)c(=O)[nH]1		CCL18		>100 µM
O=c1[nH]c(=O)n([C@H]2C[C@H](O)[C@@H](CO)O2)cc1I	cytopathic effect	PRK	VEW257	0.15 µg/mL
CCCCCCc1cn([C@@H]2O[C@H](COP(=O)(O)O)[C@@H](O)[C@H]2O)c(=O)nc1N			F	>400 µg/mL
O=c1ccn([C@H]2C[C@](O)(CO)CO2)c(=O)[nH]1		CCL18		>100 µM
Nc1nc(=O)n([C@@H]2O[C@H](CO)[C@@H](O)[C@@H]2F)cc1I	cytopathic effect	PRK	KOS	<0.02 µg/mL
CCCCCCCCc1cn([C@@H]2O[C@H](COP(=O)(O)O)[C@@H](O)[C@H]2O)c(=O)nc1N			KOS	>400 µg/mL
Nc1ccn(C2OC[C@H](CO)[C@H]2CO)c(=O)n1	cytopathic effect	VERO		>100 µg/mL
CC1(C)OCC2(CC(CO)OC2=O)O1		CCL18		>100 µM
O=c1[nH]c(=O)n([C@@H]2O[C@H](CO)[C@@H](O)[C@@H]2O)cc1/C=C/Br	plaque count	HEL	WT-34	0.024 µM
Nc1nc2c(ncn2COC(CO)CO)c(=O)[nH]1	plaque count	VERO	Shealey	3 µM
Cc1cccn2c(C3OCCO3)cnc12		E6SM	KOS	>1000 µM
[N-]=[N+]=NCc1cn([C@H]2C[C@H](O)[C@@H](CO)O2)c(=O)[nH]c1=O	cytopathic effect	HSF	KOS	2 µg/mL
Cc1cn([C@@H]2O[C@H](COP(=O)(O)O)[C@@H](O)[C@H]2O)c(=O)nc1N			KOS	>400 µg/mL
COc1cc(Cc2cnc(-n3c(-c4ccccc4)nc4ccc(Br)cc4c3=O)nc2N)cc(OC)c1OC	cytopathic effect	E6SM	KOS ACV (TK-)	48 µg/mL
Nc1ncnc2c1ncn2N1C[C@H](CO)[C@H]1CO	cytopathic effect	VERO		33.2 µg/mL
CC1(CO)CCC(Cn2cnc3c(N)nc(N)nc32)C1(C)C	cytopathic effect	E6SM	TK-/B2006	>100 µg/mL
CCc1nc(-n2c(C)nc3ccc(Br)cc3c2=O)nc(N)c1-c1ccc(Cl)cc1	cytopathic effect	E6SM	KOS	>16 µg/mL
Cc1cn(C2SC[C@H](CO)[C@H]2CO)c(=O)[nH]c1=O	cytopathic effect	VERO		>100 µg/mL
Nc1nc(-n2c(-c3ccccc3)nc3ccc(Br)cc3c2=O)nnc1-c1cccc(Cl)c1Cl	cytopathic effect	E6SM	KOS ACV (TK-)	>80 µg/mL
O=c1[nH]c(=O)n([C@H]2C[C@H](O)[C@@H](CO)O2)cc1I	cytopathic effect	VERO		<0.1 µg/mL
Cc1cccn2c(C3SCCS3)cnc12		E6SM	B2006 (TK-)	>1000 µM

The first 5 rows once more:

Cc1cn([C@@H]2CC3(CO2)COC(C)(C)O3)c(=O)[nH]c1=O ; cells: CCL18 ; value: >100 µM
CSCc1cn([C@H]2C[C@H](O)[C@@H](CO)O2)c(=O)[nH]c1=O ; method: cytopathic effect ; cells: PRK ; strain or isolate: VEO231 ; value: 10 µg/mL
CC1(C)OCC2(CO[C@@H](n3ccc(=O)[nH]c3=O)C2)O1 ; cells: CCL18 ; value: >100 µM
Cc1ccn2c(C(SCCc3ccccc3)SCCc3ccccc3)cnc2c1 ; cells: E6SM ; strain or isolate: KOS ; value: >1000 µM
CC1(CO)CCC(Cn2nnc3c(Cl)nc(N)nc32)C1(C)C ; method: cytopathic effect ; cells: E6SM ; strain or isolate: TK-/B2006 ; value: >400 µg/mL